{"source": "patent US7868037B2", "about": "(PTC Therapeutics, Inc., priority 2004, dated 2011)", "tested_on": "HCV-PV chimera", "note": "pIC50: −log10 of the molar value.", "data": [{"smiles": "CCn1c(C#Cc2ccc(NC(C)=O)cc2)c(C#N)c2ccc(OC)cc21", "note": "[Compound 138, N-[4-(3-cyano-1-ethyl-6-methoxy-1H-indol-2-ylethynyl)-phenyl]-acetamide]", "values": [{"measurement": "pIC50", "result": "> 6.30"}]}]}
